Columns and labels:
[1] = system: Intracellular L. mexicana amastigotes; assay type: cell-based, Leishmania mexicana; conditions: 72 hr LC50 THP-1 / Giemsa IC50 L. mexicana
Experimental: (§1) Bone marrow derived macrophages (BMDMs) were isolated from BALB/c mice and cultured as previously described. […] Completely differentiated BMDMs are obtained after 7 days of culture with media change every 2 days. Harvested cells are seeded onto 10 mm glass cover slips at 5 x 10^5 cells/ well of a 24 well plate in DMEM media (without LCM) and allowed to adhere overnight. BMDM cells are then infected overnight with LV82 L. donovani or L. mexicana (NR-51210) at a multiplicity of infection of 10. After infection, cells were washed three times with fresh media to remove extracellular promastigotes and treated with compounds for a 72-hour incubation. BMDM cells were then washed with phosphate buffered saline, fixed with ice-cold methanol, and stained with Giemsa (5% v/v in water). The cover slips with stained cells are mounted onto glass slides and imaged on EVOS XL (100X, Thermo Fisher Scientific). Leishmania amastigotes per 100 macrophages were determined in a blinded manner.

[2] = system: Intracellular L. donovani amastigotes; test: Luminescence-based assay of intracellular L. donovani burden in THP-1 macrophages; assay type: cell-based, Leishmania donovani; conditions: host-directed effect vs cytotoxicity in THP-1
Experimental: Luminescent strains, L. donovani LV82 expressing firefly luciferase (a kind gift from Dr. Abhay Satoskar, Ohio State University) and L. mexicana (NR-51210, ATCC) expressing renilla luciferase were used to evaluate the effect of the compounds in intracellular and extracellular conditions. Wild-type L. donovani LV82 (ATCC) were used for Giemsa staining based experiments. All parasites were cultured at 25°C and 5% CO2 in M199 media (Corning) supplemented with 10% FBS, 1% Penicillin/Streptomycin, and Hemin (0.01 mg/mL), and used in experiments up to passage 15.
THP-1 cells were seeded in a 96 well plate (25,000 cells/well) overnight then differentiated with 150 nM phorbol 12-myristate 13-acetate (PMA) over 72 hours (S1 Fig). […] Briefly, promastigotes of a known cell density were resuspended in RPMI media (with 10% FBS, 1% P/S and 0.05 mM β-mercaptoethanol) and incubated with adhered THP-1 cells over 18 hours. After infection, cells were washed three times with fresh media to remove extracellular promastigotes.
Infected macrophages were then treated with compounds solubilized in DMSO ranging from 0.1-10 µM in concentrations. After 72 hours of treatment, the viability of the amastigotes within macrophages was determined using Promega firefly luminescence assay (Cat E1500) or Pierce Renilla luciferase assay (Cat 16166) for L. donovani and L. mexicana strains, respectively. Briefly, media was removed, and cells were lysed with the assay lysis buffer. The luciferase substrate was then incubated with the lysed cells for 10 min at room temperature and luminescence of live Leishmania was measured in a white opaque 96 well plate using a Biotek plate reader.

[3] = system: Intracellular L. donovani amastigotes; test: Image-based Giemsa staining of intracellular L. donovani in bone marrow derived macrophages; assay type: cell-based, Leishmania donovani; conditions: 72 hr LC50 THP-1 / Giemsa IC50 L. donovani
Experimental: as §1

Compound	L. mexicana Therapeutic Index LC50/ IC50 [1]	Selectivity 24h LC50/ Lum IC50 [2]	Therapeutic Index LC50/ IC50 (L. donovani) [3]
NC1CCN(c2ccc(-n3nncc3-c3ccc(C(F)(F)F)cc3)cc2)C1 (centres unmarked) [Compound 134]	40		
NCC(=O)Nc1ccc(-n2cc(C(F)(F)F)nc2-c2ccc(-c3ccccc3)cc2)cc1 [Compound 50]		16.0	5
N#Cc1ccc(CNCC(=O)Nc2ccc(-n3nc(C(F)(F)F)cc3C3CCCCC3)cc2)cc1 [Compound 354]	6		
Oc1ccccc1CN1CCC(Nc2ccc(-n3nc(C(F)(F)F)cc3-c3ccc(-c4ccc(C(F)(F)F)cc4)cc3)cc2)C1 (centres unmarked) [Compound 91]		>36.1	22
NCC(=O)Nc1ccc(-n2ccnc2-c2ccc(-c3ccc(C(F)(F)F)cc3)cc2)cc1 [Compound 158]		81.0	29
N#Cc1cccc(CN2CCC(Nc3ccc(-n4nc(C(F)(F)F)cc4-c4ccc(-c5ccc(C(F)(F)F)cc5)cc4)cc3)C2)c1 (centres unmarked) [Compound 53]	>428		
CC(C)(C)C#Cc1ccc(-c2cc(C(F)(F)F)nn2-c2ccc(N3CCNCC3)cc2)cc1 [Compound 44]		8.1	14
O=C(Nc1ccc(-n2cc(C(F)(F)F)nc2-c2ccc(-c3ccccc3)cc2)cc1)C1CCN(Cc2ccccc2)C1 (centres unmarked) [Compound 86]		16.0	14
FC(F)(F)c1ccc(-c2ccc(-c3cc(C(F)(F)F)nn3-c3ccc(NC4CCNC4)cc3)cc2)cc1 (racemic) [Compound 25]		43.8	2
O=C(CNCc1cccc(F)c1)Nc1ccc(-n2cc(C(F)(F)F)nc2-c2ccc(-c3ccc(C(F)(F)F)cc3)cc2)cc1 [Compound 197]	>176		
Oc1ccc(CNC2CCN(c3ccc(-n4nc(C(F)(F)F)cc4C4CCCCC4)cc3)CC2)cc1 [Compound 319]		8.1	2
Nc1ccc(CNC2CCN(c3ccc(-n4nc(C(F)(F)F)cc4-c4ccc(-c5ccc(C(F)(F)F)cc5)cc4)cc3)C2)cc1 (centres unmarked) [Compound 23]		14.8	8
